Compound potency records, mixed from different reports. Data source: NIAID ChemDB in PubChem.

Common to all: enzyme or target tests; species: Herpes simplex virus 1; protein: DNA polymerase

ICn is the concentration giving n% inhibition. Lines come from different laboratories, so protocols vary.

Nc1nc2c(ncn2CCC(CO)COP(=O)(O)OP(=O)(O)OP(=O)(O)O)c(=O)[nH]1 ; endpoint: Ki ; value: 16 µM
Nc1nc(N)c2nnn([C@@H]3O[C@H](COP(=O)(O)O)[C@@H](O)[C@H]3O)c2n1 ; endpoint: IC50 ; value: <2000 µM
CCCCCC[C@@H]([C@H](C)O)n1cnc2c(N)ncnc21 ; endpoint: IC50 ; value: >50 µM
Cn1cc(C(=O)NCc2ccc(Cl)cc2)c(=O)c2cc(/C=C\CO)cc(F)c21 ; endpoint: IC50 ; value: 1 µM
Nn1cc(C(=O)NCc2ccc(Cl)cc2)c(=O)c2cc(CCCO)ccc21 ; endpoint: IC50 ; value: 0.22 µM
O=C(NCc1ccc(Cl)cc1)c1c[nH]c2c(F)cccc2c1=O ; endpoint: IC50 ; value: 2.9 µM
O=c1ccn([C@@H]2O[C@H](COP(=O)(O)O)[C@@H](O)[C@H]2O)c(=O)[nH]1 ; endpoint: IC50 ; value: <2000 µM
NC1=NC2C(C=CN2CC(CO)CCOP(=O)(O)OP(=O)(O)OP(=O)(O)O)C(=O)N1 ; endpoint: Ki ; value: 2.8 µM
CN(C)n1cc(C(=O)NCc2ccc(Cl)cc2)c(=O)c2cc(CN3CCOCC3)ccc21 ; endpoint: IC50 ; value: 0.72 µM
O=c1[nH]cnc2c1ncn2[C@H]1CC[C@@H](COP(=O)(O)O)O1 ; endpoint: IC50 ; value: <2000 µM
O=C(NCc1ccc(Cl)cc1)c1cn(N2CCCCC2)c2ccc(CN3CCOCC3)cc2c1=O ; endpoint: IC50 ; value: 0.44 µM
O=c1[nH]c(=O)n([C@@H]2O[C@H](CO)[C@@H](O)[C@@H]2F)cc1/C=C/Br ; endpoint: Ki ; value: 0.67 µM
Nn1cc(C(=O)NCc2ccc(Cl)cc2)c(=O)c2cc(C#CCO)ccc21 ; endpoint: IC50 ; value: 0.31 µM
Nc1nc2c(ncn2COCCOP(=O)(O)OP(=O)(O)OP(=O)(O)O)c(=O)[nH]1 ; endpoint: Ki ; value: 0.003 µM
O=C(NCc1ccc(Cl)cc1)c1n[nH]c2ccccc2c1=O ; endpoint: IC50 ; value: 20.8 µM
Nc1nc2c(ncn2COCCOP(=O)(O)OP(=O)(O)OP(=O)(O)O)c(=O)[nH]1 ; endpoint: Ki ; strain: KOS ; value: 0.013 µM

A second listing of 2 rows from above:

O=c1[nH]c(=O)n([C@@H]2O[C@H](CO)[C@@H](O)[C@@H]2F)cc1/C=C/Br ; endpoint: Ki ; value: 0.67 µM
O=c1[nH]cnc2c1ncn2[C@H]1CC[C@@H](COP(=O)(O)O)O1 ; endpoint: IC50 ; value: <2000 µM